Results published in US7718767B2, “3-ether and 3-thioether substituted cyclosporin derivatives for the treatment and prevention of hepatitis C infection” (Scynexis, Inc., priority 2006, dated 2010).

Tested on: HIV-1IIIB
Experiment: HIV MTS cytoprotection assay in CEM-SS cells
Type: cell-based, human immunodeficiency virus-1

| Compound | Selectivity Index IC50/EC50 |
| --- | --- |
| C/C=C/C[C@@H](C)[C@@H](O)[C@H]1C(=O)N[C@@H](CC)C(=O)N(C)C(SCC)C(=O)N(C)[C@@H](CC(C)C)C(=O)N[C@@H](C(C)C)C(=O)N(C)[C@@H](CC(C)C)C(=O)N[C@@H](C)C(=O)N[C@H](C)C(=O)N(C)[C@@H](CC(C)C)C(=O)N(C)[C@@H](CC(C)C)C(=O)N(C)[C@@H](C(C)C)C(=O)N1C (some centres unmarked) [P, 3-ethylthiocyclosporin] | 38 |
| C=CCS[C@@H]1C(=O)N(C)[C@@H](CC(C)C)C(=O)N[C@@H](C(C)C)C(=O)N(C)[C@@H](CC(C)C)C(=O)N[C@@H](C)C(=O)N[C@H](C)C(=O)N(C)[C@@H](CC(C)C)C(=O)N(C)[C@@H](CC(C)C)C(=O)N(C)[C@@H](C(C)C)C(=O)N(C)[C@@H]([C@H](O)[C@H](C)C/C=C/C)C(=O)N[C@@H](CC)C(=O)N1C [Q, 3-propenylthiocyclosporin] | 82 |
